Test results as given in patent US12421264B2 (INSTITUT NATIONAL DE LA RECHERCHE SCIENTIFIQUE, priority 2018, dated 2025).

System: N. elongata
Test: Bacterial intracellular boron content by ICP-MS
Format: cell-based, Neisseria elongata

SMILES: [Na+].c1ccc([B-](c2ccccc2)(c2ccccc2)c2ccccc2)cc1 [Compound 1, Sodium tetraphenylborate]
- boron uptake relative to respective control (5 μM in agar media, ICP-MS): less than 2 fold
- boron levels relative to NaBF4 (100 μM of NaBPh4 vs 100 μM NaBF4): 61 fold
